The text below walks through data of article PMC6579712 (Xenobiotica; the fate of foreign compounds in biological …, 2018).

For series [1] the following is noted: BLT mice and NHPs, p=1.0.
For series [2] the following is noted: ref MacArthur et al. 2008; cited from earlier work.
Series [3] in a line: ARV concentrations in brain tissue and plasma by LC-MS/MS, BLT mice. The note with it: BLT vs hu-HSC-RAG.

maraviroc [MVC]: the “brain tissue:plasma penetration ratio (median)” value in series [1] stood at 1. The “blood plasma protein binding” value in series [2] is ~ 76%. In addition, the “fold higher brain tissue penetration in BLT mice compared to hu-HSC-RAG mice” value in series [3] is listed as 5 fold.
